These results are taken from paper PMC12658140.

The target of the assay is H3 stem with T32HA2 (influenza A virus H3N2 A/Finland/486/2004). In words: BLI. A general note: Biolayer interferometry detects binding as a change in optical thickness at a sensor tip.

B1: AG2-G02 Fab (Fab, V domains shown)
VH: VQLVQSGAEMKKPGASVKVSCKASGYTFSAYYIHWVRQAPGQGLEWMGRINTDSGGTNFAQQFEGRVTMTRDTSISTAYMELSSLRSDDTAVYYCARGYDFWLGSYRAGGWFDPWGQGTLVTVSS
VL: [no letters for about 100 residues]GFTFGPGTKVDIK
The molecule B1 returned a Kd of 0.57 nM.

A word on the Kd: it is the free concentration of one partner at which half of the binding sites on the other are occupied at equilibrium, for simple one-to-one binding. Low readings indicate higher affinity, high ones lower affinity.
